What was measured:
[1] = target: memory CD4+ T cells from DP4+ donors, unstimulated (a small subset; their TCRs); experiment: flow cytometry ex vivo; 74119 evts in the dimer- CD4+ gate
[2] = target: memory CD4+ T cells from DP4+ donors, unstimulated (a small subset; their TCRs); experiment: flow cytometry ex vivo; 53743 evts in the dimer- CD4+ gate
[3] = target: memory CD4+ T cells from DP4+ donors, unstimulated (a small subset; their TCRs); experiment: flow cytometry ex vivo; 81559 evts in the dimer- CD4+ gate
[4] = target: memory CD4+ T cells from DP4+ donors, unstimulated (a small subset; their TCRs); experiment: flow cytometry ex vivo; 121598 evts in the dimer- CD4+ gate
[5] = target: memory CD4+ T cells from DP4+ donors, unstimulated (a small subset; their TCRs); experiment: flow cytometry ex vivo; 156667 evts in the dimer- CD4+ gate

## Flu-HA527-546 DP4^L112W/V141M dimer (peptide-MHC)
[1]
  events in the dimer+ CD4+ gate: 0 evts
[2]
  events in the dimer+ CD4+ gate: 0 evts
[3]
  events in the dimer+ CD4+ gate: 3 evts
[4]
  events in the dimer+ CD4+ gate: 0 evts
[5]
  events in the dimer+ CD4+ gate: 1 evts

— patent US20220291215A1, “METHODS OF IDENTIFYING T CELL RECEPTORS” (published 2022)
